Results reported in patent US20040248081, “LANA viral protein binding sites” (THE REGENTS OF THE UNIVERSITY OF MICHIGAN, published 2004).
Where cells or extracts were used, other partners may take part. Tags and fusion partners may be left off the protein sequences shown.

Target: T1, endogenous LANA from BC-3 cells (Kaposi's sarcoma-associated herpesvirus) (UniProt Q9QR71)
T1 sequence (looked up, limits assumed): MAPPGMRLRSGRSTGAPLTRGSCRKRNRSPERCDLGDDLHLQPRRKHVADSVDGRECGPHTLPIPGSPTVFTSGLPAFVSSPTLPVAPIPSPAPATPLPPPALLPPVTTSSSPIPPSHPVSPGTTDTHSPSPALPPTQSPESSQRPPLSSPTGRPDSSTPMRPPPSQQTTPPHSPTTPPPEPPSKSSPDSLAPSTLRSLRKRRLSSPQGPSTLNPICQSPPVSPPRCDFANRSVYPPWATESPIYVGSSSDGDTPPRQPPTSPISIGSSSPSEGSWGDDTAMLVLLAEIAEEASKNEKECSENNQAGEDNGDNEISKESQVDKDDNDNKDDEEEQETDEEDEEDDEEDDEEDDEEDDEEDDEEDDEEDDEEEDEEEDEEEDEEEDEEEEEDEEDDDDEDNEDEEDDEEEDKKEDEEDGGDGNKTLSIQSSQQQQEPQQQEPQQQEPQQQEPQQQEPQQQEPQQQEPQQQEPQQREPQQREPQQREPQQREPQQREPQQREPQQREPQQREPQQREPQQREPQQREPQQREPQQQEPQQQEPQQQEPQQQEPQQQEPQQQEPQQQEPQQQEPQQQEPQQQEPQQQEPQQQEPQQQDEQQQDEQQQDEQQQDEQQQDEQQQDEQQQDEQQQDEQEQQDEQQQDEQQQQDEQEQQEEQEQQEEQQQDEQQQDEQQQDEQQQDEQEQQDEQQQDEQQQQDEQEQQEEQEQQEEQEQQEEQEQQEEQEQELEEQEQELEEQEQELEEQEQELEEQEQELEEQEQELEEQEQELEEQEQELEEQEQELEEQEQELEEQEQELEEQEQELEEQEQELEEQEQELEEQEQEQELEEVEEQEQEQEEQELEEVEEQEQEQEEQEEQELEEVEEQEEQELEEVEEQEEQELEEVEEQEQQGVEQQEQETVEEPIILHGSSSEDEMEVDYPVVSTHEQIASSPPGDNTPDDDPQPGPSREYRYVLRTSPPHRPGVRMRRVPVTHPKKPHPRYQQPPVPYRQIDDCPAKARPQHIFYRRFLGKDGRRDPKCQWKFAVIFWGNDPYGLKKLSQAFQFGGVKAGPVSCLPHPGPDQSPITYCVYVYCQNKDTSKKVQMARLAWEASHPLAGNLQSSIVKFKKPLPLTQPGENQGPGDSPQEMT
Assay: EMSA
Settings: at least six complexes; anti-LANA supershift; protein in an extract; label: radiolabel

Does “TCCCGCCCGGGCATGGG (double strand) [TLBR4]” bind?
Result: binds
